Single amino acid changes in Zika NS2B-NS3 and viral growth

The scanned region of Zika virus MR766 is shown below (positions 1-308): NS2B is 2-131, NS3 begins at position 132.
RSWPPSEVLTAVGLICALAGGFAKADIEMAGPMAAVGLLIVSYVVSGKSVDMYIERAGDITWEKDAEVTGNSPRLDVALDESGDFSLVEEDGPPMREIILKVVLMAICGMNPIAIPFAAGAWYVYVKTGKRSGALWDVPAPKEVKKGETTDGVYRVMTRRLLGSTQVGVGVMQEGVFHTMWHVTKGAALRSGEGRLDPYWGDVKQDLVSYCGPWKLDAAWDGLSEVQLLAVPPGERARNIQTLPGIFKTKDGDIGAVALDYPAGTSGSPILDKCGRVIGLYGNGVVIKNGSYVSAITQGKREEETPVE

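Pools of virus carrying all single amino acid changes were selected for growth in Huh-7.5 cells. Sequencing of three replicate libraries (two for positions 207-308) was averaged into one effect per change.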

Values are log2 effects on growth: 0 is wild type, lower means poorer growth.
A change reads original residue, position, new residue.
Positions 1-103, 104-206 and 207-308 were made and measured as separate libraries.

| substitution | effect (log2) |
|---|---|
| Y53L | -7.71 |
| R301C | -1.39 |
| L104V | -5.41 |
| V88M | -2.12 |
| S191A | -3.40 |
| V8N | -5.60 |
| D65C | -3.00 |
| L243R | -2.61 |
| M95I | -1.17 |
| V169S | -5.60 |
| T149P | -6.73 |
| A219T | 0.89 |
| N289H | -6.11 |
| Y292M | -4.24 |
| I15Y | -6.50 |
| R159T | -3.81 |
| P306V | -1.33 |
| A25W | -1.94 |
| K250G | -4.06 |
| S266M | -4.85 |
| T10D | -4.96 |
| D84S | -7.00 |
| E63P | -7.46 |
| A295V | -6.29 |
| D217P | -6.69 |
| G212I | -6.43 |
| V77D | -6.03 |
| P4A | -4.49 |
| K300R | -0.21 |
| S191W | -5.06 |
| I115K | -5.54 |
| G201W | -6.71 |
| E302K | -1.11 |
| K250Y | -6.04 |
| T265I | -3.73 |
| K127Q | -3.32 |
| A237R | -2.38 |
| V176A | -5.29 |
| F177E | -5.04 |
| W181Y | -4.80 |
| K101P | -7.09 |
| G299V | -6.70 |
| Y281M | -5.15 |
| Y199A | -1.22 |
| V126A | -1.04 |
| V144I | -0.83 |
| G245Q | -5.11 |
| F85P | -6.50 |
| Y43Q | -5.93 |
| D221G | -6.31 |
| Q227W | -5.61 |
| I113H | -5.08 |
| S6D | -5.83 |
| M180H | -4.57 |
| G170Q | -5.82 |
| G212W | -7.55 |
| K185Q | -3.05 |
| V293H | -4.42 |
| E174N | -5.37 |
| G58T | -1.51 |
| L79A | -6.79 |
| L229V | -3.68 |
| S132A | -2.58 |
| A134R | -6.76 |

3 of these entries, quoted again:

For A237R the result was -2.38.
For Y43Q the result was -5.93.
For L229V the result was -3.68.

Position 1 still belongs to NS2A. In the paper, -1 or higher counts as tolerated.
Six mutants with high scores were retested singly and none clearly outgrew wild type, so positive values are not proof of better growth.

Source: Ni et al. 2025 (doi:10.1038/s41467-025-63602-z), supplementary data.